Experimental data taken from US20240043507A1.

Target: SARS-CoV-2 spike receptor binding domain, native (SARS-CoV-2) (UniProt P0DTC2)
Experiment: BLI, RBD on AR2G biosensor, mAb as analyte

## AZD8895 (antibody)
  Kd: 2.18 nM
